A mixed list of measured activities; the numbers were collected in NIAID ChemDB.

Shared fields: tests in culture; organism: Aspergillus flavus; endpoint: zone

Zones are inhibition diameters on agar.

{"compound": "c1ccc2c(c1)Sc1cccnc1N2CCCCCCN1c2ccccc2Sc2cccnc21", "strain": "MTCC 277", "tested at": "100 µg/mL", "result": "12 mm"}
{"compound": "Cc1ccc(O)c(O)c1O", "tested at": "200 µg/mL", "result": "12 mm"}
{"compound": "Cn1cc(CCCNC(=O)CCc2c[nH]c3ccc(Cl)cc23)c2cc(Cl)ccc21", "strain": "NCIM 524", "tested at": "25 µg/mL", "result": "<10 mm"}
{"compound": "Cc1nc2ccccc2n(CC(=O)NN2C(=O)CSC2c2ccccc2O)c1=O", "tested at": "100 µg/mL", "result": "14 mm"}
{"compound": "O=C1NC(=O)C(Cc2nc3ccccc3s2)S1", "tested at": "20000 µg/mL", "result": "<7 mm"}
{"compound": "OC(Cn1cncn1)(Cn1cncn1)c1ccc(F)cc1F", "strain": "MTCC 1883", "tested at": "500 µg/mL", "result": "26 mm"}
{"compound": "CSc1ccc(C2=NN(c3ccccc3)C(c3cn(-c4ccccc4)nc3-c3ccc(Cl)cc3)C2)cc1", "tested at": "1000 µg/mL", "result": "3 mm"}
{"compound": "Fc1ccc2c(c1)Sc1cccnc1N2CCCCCCN1c2ccc(F)cc2Sc2cccnc21", "strain": "MTCC 277", "tested at": "100 µg/mL", "result": "12 mm"}
{"compound": "Cc1nc2ccccc2n(CC(=O)NN2C(=O)CSC2c2ccc(Cl)cc2)c1=O", "tested at": "100 µg/mL", "result": "23 mm"}
{"compound": "Clc1ccc(-c2nn(-c3ccccc3)cc2C2CC(c3ccc(-c4ccccc4)cc3)=NN2c2ccccc2)cc1", "tested at": "1000 µg/mL", "result": "5 mm"}
{"compound": "Cc1nc2ccccc2n(CC(=O)NN2C(=O)CSC2c2ccc([N+](=O)[O-])cc2)c1=O", "tested at": "50 µg/mL", "result": "13 mm"}
{"compound": "Nc1nc(COC(=O)C2(c3ccc(Cl)cc3)CC2)cs1", "strain": "NCIM No. 524", "tested at": "25 µg/mL", "result": "<10 mm"}
{"compound": "Clc1ccc2c(c1)Sc1cccnc1N2CCCCN1c2ccc(Cl)cc2Sc2cccnc21", "strain": "MTCC 277", "tested at": "100 µg/mL", "result": "12 mm"}
{"compound": "O=C1NC(=O)C(Cc2nc3ccccc3[nH]2)S1", "tested at": "20000 µg/mL", "result": "<7 mm"}
{"compound": "OC(Cn1cncn1)(Cn1cncn1)c1ccc(F)cc1F", "tested at": "50 µg/mL", "result": "100 mm"}
{"compound": "Clc1ccc2c(c1)Sc1cccnc1N2CCCCCCN1c2ccc(Cl)cc2Sc2cccnc21", "strain": "MTCC 277", "tested at": "100 µg/mL", "result": "10 mm"}
{"compound": "Nc1nc(COC(=O)c2ccccc2)cs1", "strain": "NCIM No. 524", "tested at": "25 µg/mL", "result": "<10 mm"}
{"compound": "Cc1nc2ccccc2n(CC(=O)NN2C(=O)CSC2c2ccc(O)cc2)c1=O", "tested at": "100 µg/mL", "result": "21 mm"}
{"compound": "O=C(CC1SC(=O)NC1=O)Nc1ccccc1C(=O)O", "tested at": "20000 µg/mL", "result": "<7 mm"}
{"compound": "Cn1cc(CCC(=O)NCc2cn(C)c3ccc(Cl)cc23)c2cc(Cl)ccc21", "strain": "NCIM 524", "tested at": "25 µg/mL", "result": "<10 mm"}
{"compound": "Nc1nc(COC(=O)c2cccs2)cs1", "strain": "NCIM No. 524", "tested at": "25 µg/mL", "result": "<10 mm"}
{"compound": "Cc1[nH]c2ccc(OC(F)(F)F)cc2c1CNC(=O)CCc1cn(C)c2ccc(Cl)cc12", "strain": "NCIM 524", "tested at": "25 µg/mL", "result": "<10 mm"}
{"compound": "Nc1nc(COC(=O)c2c(F)cccc2Cl)cs1", "strain": "NCIM No. 524", "tested at": "25 µg/mL", "result": "<10 mm"}
{"compound": "COc1ccc(-c2nn(-c3ccccc3)cc2C2CC(c3ccc(SC)cc3)=NN2c2ccccc2)cc1", "tested at": "500 µg/mL", "result": "0 mm"}

3 of the rows above, restated:

Nc1nc(COC(=O)C2(c3ccc(Cl)cc3)CC2)cs1 ; strain: NCIM No. 524 ; tested at: 25 µg/mL ; result: <10 mm
Nc1nc(COC(=O)c2c(F)cccc2Cl)cs1 ; strain: NCIM No. 524 ; tested at: 25 µg/mL ; result: <10 mm
Clc1ccc2c(c1)Sc1cccnc1N2CCCCCCN1c2ccc(Cl)cc2Sc2cccnc21 ; strain: MTCC 277 ; tested at: 100 µg/mL ; result: 10 mm

Conditions beyond the fields shown may differ between rows.